{"source": "PubChem BioAssay AID504761 – Drosophila RNAi Screening Center | 2011", "aim": "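Insect host genes that dengue virus relies on to spread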 (primary screen)", "cells": "D.Mel-2 cells from Drosophila", "reagents": "long dsRNA against Drosophila genes", "treatment": "infection with dengue virus type 2; dose and infection time not stated", "measurement": "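Cells stained for dengue envelope protein and imaged; percent of infected cells per well on duplicate plates, ranked by infection, with stained nuclei counted for cell number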", "scale": "infection score: higher = more virus-infected cells", "active means": "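Very low infection ranking in both replicate wells (chance probability at most 0.065), then a retest showing infection dropped 1.5-fold or more at p below 0.05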", "meaning of the calls": "active = confirmed: knock-down lowers infection; inactive = not picked or not confirmed", "note": "The screen tested about 22,000 reagents; below is an unselected part of those with a known target gene and a result. Over the whole deposit, 116 (0.52%) were called active. 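Calls depend on retest data that are not deposited; infection was ranked per plate without normalising between plates; the unit of the infection score is not given.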 Entries without a mark were called inactive. Further read-outs or replicates are left out here. Not stated in the record: the amount of reagent, the time to read-out."}
{"target gene":"Mal-B2","DRSC id":"DRSC02417","infection score, replicate 1":4.37}
{"target gene":"l(3)05822","DRSC id":"DRSC16202","infection score, replicate 1":3.09}
{"target gene":"l(3)05822","DRSC id":"DRSC24720","infection score, replicate 1":0.62}
{"target gene":"Cpr97Ea","DRSC id":"DRSC15974","infection score, replicate 1":2.86}
{"target gene":"Cpr97Ea","DRSC id":"DRSC26548","infection score, replicate 1":8.52}
{"target gene":"wol","DRSC id":"DRSC03077","infection score, replicate 1":4.51}
{"target gene":"wol","DRSC id":"DRSC27227","infection score, replicate 1":11.5}
{"target gene":"Mi-2","DRSC id":"DRSC11222","infection score, replicate 1":6.28}
{"target gene":"Mi-2","DRSC id":"DRSC25055","infection score, replicate 1":8.86}

Targets above whose target name starts with L or l (2):
{"target gene":"l(3)05822","DRSC id":"DRSC16202","infection score, replicate 1":3.09}
{"target gene":"l(3)05822","DRSC id":"DRSC24720","infection score, replicate 1":0.62}

Further records:
{"target gene":"CG13251","DRSC id":"DRSC11699","infection score, replicate 1":3.75}
{"target gene":"CG13251","DRSC id":"DRSC27385","infection score, replicate 1":22.5}
{"target gene":"eIF3f1","DRSC id":"DRSC12328","infection score, replicate 1":6.15}
{"target gene":"eIF3f1","DRSC id":"DRSC26155","infection score, replicate 1":6.27}
{"target gene":"CG10907","DRSC id":"DRSC09804","infection score, replicate 1":0.69}
